According to US4346087A, “Antibacterial surface active agent containing azaalkenelactam” (priority 1979, dated 1982):

Key:
[1] = Metal corrosion inhibition in brake fluid A, cast iron; details: 100°±2° C., 120±2 hours, blank -0.14
[2] = Metal corrosion inhibition in brake fluid A, aluminum; details: 100°±2° C., 120±2 hours, blank +0.07
[3] = Metal corrosion inhibition in brake fluid A, brass; details: 100°±2° C., 120±2 hours, blank -0.20
[4] = Metal corrosion inhibition in brake fluid A, copper; details: 100°±2° C., 120±2 hours, blank +0.18
[5] = Metal corrosion inhibition in brake fluid A, steel; details: 100°±2° C., 120±2 hours, blank -0.20
[6] = Metal corrosion inhibition in brake fluid A, tin-plate; details: 100°±2° C., 120±2 hours, blank -0.15
[7] = Table 5, carboxylate derivatives […] by weight in brake fluid A
[8] = Table 4, azaalkenelactams […] by weight in brake fluid A

Compound	Weight change, cast iron [1, 7]	Weight change, aluminum [2, 7]	Weight change, brass [3, 7]	Weight change, copper [4, 7]	Weight change, steel [5, 7]	Weight change, tin-plate [6, 7]	Weight change, cast iron [1, 8]	Weight change, aluminum [2, 8]	Weight change, brass [3, 8]	Weight change, copper [4, 8]	Weight change, steel [5, 8]	Weight change, tin-plate [6, 8]
CCCCCCCCC=CCCCCCCCCN1CCC[N+](CC(=O)[O-])=C(C)CC1=O [1-(9-octadecenyl)-4-methyl-1-aza-5-azoniacyclooct-4-en-2-one-5-acetate]	-0.03 mg/cm^2	+0.01 mg/cm^2	0 mg/cm^2	0 mg/cm^2	-0.03 mg/cm^2	-0.01 mg/cm^2						
CCCCCCCCCCCCCCNCCN1CCN=C(C)CC1=O [Example 35, 4-tetradecylaminoethyl-7-methyl-3,6-dihydro-2H-1,4-diazepin-5-one]							-0.01 mg/cm^2	0 mg/cm^2	0 mg/cm^2	+0.01 mg/cm^2	-0.01 mg/cm^2	0 mg/cm^2
CCCCCCCCOCCCN1CC[N+](CC(=O)[O-])=CC(C)(C)C1=O [4-oxtoxypropyl-6,6-dimethyl-1-azonia-4-azacyclohept-7-en-5-one-1-acetate]	-0.03 mg/cm^2	+0.01 mg/cm^2	-0.01 mg/cm^2	0 mg/cm^2	-0.02 mg/cm^2	-0.02 mg/cm^2						
CCCCCCCCCCCCCCNCCN1CC[N+](CC(=O)[O-])=CC(C)C1=O (stereo not drawn) [4-tetradecylaminoethyl-6-methyl-1-azonia-4-azacyclohept-7-en-5-one-1-acetate]	0 mg/cm^2	+0.02 mg/cm^2	-0.02 mg/cm^2	-0.01 mg/cm^2	-0.01 mg/cm^2	-0.02 mg/cm^2						
CCCCCCCCCCCCCCC(O)CNCCN1CCCN=CC(C)C1=O (stereo not drawn) [Example 49, 1-(2-hydroxyhexadecyl)aminoethyl-3-methyl-3,6,7,8-tetrahydro-1,5-diazocin-2-one]							-0.01 mg/cm^2	0 mg/cm^2	-0.01 mg/cm^2	+0.01 mg/cm^2	-0.01 mg/cm^2	0 mg/cm^2
CCCCCCCCCCCCN1CCCN=CC(C)C1=O (stereo not drawn) [Example 44, 1-dodecyl-3-methyl-3,6,7,8-tetrahydro-1,5-diazocin-2-one]							-0.01 mg/cm^2	+0.02 mg/cm^2	-0.02 mg/cm^2	+0.03 mg/cm^2	-0.01 mg/cm^2	0 mg/cm^2
4-octoxy(2-hydroxy)propyl-7-methyl-3,6-dihydro-2H-1,4-diazepin-5-one [Example 31]							-0.01 mg/cm^2	+0.01 mg/cm^2	-0.03 mg/cm^2	+0.01 mg/cm^2	-0.02 mg/cm^2	-0.01 mg/cm^2
4-behenoyloxypropyl-6-methyl-2,3,6,7-tetrahydro-1,4-diazocin-5-one [Example 68]							-0.02 mg/cm^2	+0.01 mg/cm^2	-0.01 mg/cm^2	+0.02 mg/cm^2	-0.02 mg/cm^2	-0.01 mg/cm^2
CCCCCCCCCCCCN1CCN=CC(C)C1=O (stereo not drawn) [Example 42, 4-dodecyl-6-methyl-3,6-dihydro-2H-1,4-diazepin-5-one]							0 mg/cm^2	+0.01 mg/cm^2	-0.02 mg/cm^2	+0.01 mg/cm^2	-0.01 mg/cm^2	-0.02 mg/cm^2
CCCCCCCCCCCCN1CCC[N+](CC(=O)[O-])=C(C)CC1=O [1-dodecyl-4-methyl-1-aza-5-azoniacyclooct-4-en-2-one-5-acetate]	0 mg/cm^2	+0.01 mg/cm^2	0 mg/cm^2	0 mg/cm^2	-0.01 mg/cm^2	-0.01 mg/cm^2						
CCCCCCC(O)CC=CCCCCCCCC(=O)OC(C)CN1CCCN=C(C)CC1=O (stereo not drawn) [Example 21]							0 mg/cm^2	+0.01 mg/cm^2	-0.01 mg/cm^2	+0.02 mg/cm^2	-0.02 mg/cm^2	0 mg/cm^2
CCCCCCCCCCCCCCNCCN1CC[N+](C(C)C(=O)[O-])=CC(C)(C)C1=O (stereo not drawn) [4-tetradecylaminoethyl-6,6-dimethyl-1-azonia-4-azacyclohept-7-en-5-one-1-propionate]	0 mg/cm^2	+0.01 mg/cm^2	-0.02 mg/cm^2	-0.02 mg/cm^2	-0.01 mg/cm^2	-0.03 mg/cm^2						
CCCCCCCCCCCCCCC(O)CNCCN1CCC[N+](CC(=O)[O-])=CC(C)(C)C1=O (stereo not drawn) [1-(2-hydroxyhexadecyl)aminoethyl-3,3-dimethyl-1-aza-5-azoniacyclooct-4-en-2-one-5-acetate]	-0.02 mg/cm^2	+0.01 mg/cm^2	0 mg/cm^2	-0.01 mg/cm^2	-0.03 mg/cm^2	-0.01 mg/cm^2						
CCCCCCCCOCCCN1CCN=CC(C)(C)C1=O [Example 63, 4-octoxypropyl-6,6-dimethyl-3-hydro-2H-1,4-diazepin-5-one]							-0.02 mg/cm^2	+0.03 mg/cm^2	-0.01 mg/cm^2	+0.02 mg/cm^2	-0.01 mg/cm^2	-0.02 mg/cm^2
CCCCCC[C@@H](O)C/C=C\CCCCCCCC(=O)NCCN1CCN=CC(C)(C)C1=O [Example 64, 4-ricinolamidoethyl-6,6-dimethyl-3-hydro-2H-1,4-diazepin-5-one]							-0.02 mg/cm^2	+0.02 mg/cm^2	-0.02 mg/cm^2	+0.02 mg/cm^2	-0.01 mg/cm^2	-0.01 mg/cm^2
CCCCCCCCCCCC(=O)OCCN1CCN=CC(C)C1=O (stereo not drawn) [Example 47, 4-lauroyloxyethyl-6-methyl-3,6-dihydro-2H-1,4-diazepin-5-one]							-0.02 mg/cm^2	+0.01 mg/cm^2	-0.02 mg/cm^2	+0.02 mg/cm^2	0 mg/cm^2	-0.01 mg/cm^2
CCCCCCCCCCCC(=O)NCCN1CCN=CC(C)C1=O (stereo not drawn) [Example 46, 4-lauramidoethyl-6-methyl-3,6-dihydro-2H-1,4-diazepin-5-one]							-0.02 mg/cm^2	+0.01 mg/cm^2	-0.01 mg/cm^2	+0.01 mg/cm^2	-0.01 mg/cm^2	0 mg/cm^2
CCCCCCCCCCCCCCCCCCCCC(O)CNCCNCCN1CCCN=C(C)CC1=O (stereo not drawn) [Example 30, 1-(2-hydroxy)docosylaminoethylaminoethyl-4-methyl-3,6,7,8-tetrahydro-1,5-diazocin-2-one]							-0.02 mg/cm^2	+0.01 mg/cm^2	-0.02 mg/cm^2	+0.02 mg/cm^2	-0.01 mg/cm^2	0 mg/cm^2
